A mixed list of measured activities; the numbers were collected in NIAID ChemDB.

Common to all: tests in culture; species: Respiratory syncytial virus; read-out: EC50

Blank or dashed fields: not listed here. ECn is the concentration giving n% inhibition of infection, replication or growth. Conditions beyond the fields shown may differ between rows.

smiles	strain	cells	method	result
CC(=O)N[C@H]1C[C@@H](n2cnc3c(N)ncnc32)[C@H](O)[C@@H]1O		HFF		>100 µg/mL
N#Cc1cc(NC(=O)c2ccccc2)c(=O)n2c1[nH]c1ccccc12	LONG	HEP-2	plaque count	0.12 µg/mL
Cc1cc(C)c2c(c1)nc(Nc1ccc(CCN)cc1)n2Cc1nc(C)ccc1O		HeLa	cytopathic effect	6.31 µM
CC(NC(=S)Nc1ccc(NC(=O)c2ccccc2F)cc1C#N)c1ccc(F)cc1	A2	HFF	ELISA	>10 µg/mL
Cc1ccc(O)c(Cn2c(NCCCN3CCCC3=O)nc3ccccc32)n1		HeLa	cytopathic effect	12.6 µM
COc1cc(OC)c(NC(=S)Nc2cc(OC)c(NC(=O)c3ccco3)cc2OC)cc1Cl		HFF		>10 µg/mL
COC(=O)[C@]1(C)CCC[C@]2(C)c3cc(Br)c4nc(C(F)(F)F)[nH]c4c3CCC12		HeLa	plaque count	>4 µg/mL
CCCN(CCC)S(=O)(=O)c1cccc(Nc2nc(Nc3cccc(S(=O)(=O)N(CCC)CCC)c3)nc(Nc3ccc(Nc4ccc(-c5ccc(Nc6ccc(Nc7nc(Nc8cccc(S(=O)(=O)N(CCC)CCC)c8)nc(Nc8cccc(S(=O)(=O)N(CCC)CCC)c8)n7)cc6S(=O)(=O)[O-])cc5S(=O)(=O)O)c(S(=O)(=O)O)c4)c(S(=O)(=O)[O-])c3)n2)c1	A2	HFF	ELISA	>25 µM
COc1cc(OC)c(NC(=S)Nc2ccc(NC(=O)c3ccco3)cc2)cc1Cl	A2	HFF		>20 µM
Cc1ccc(NC(=S)Nc2ccc(NC(=O)c3ccco3)cc2)cc1Cl		HFF		>10 µg/mL
C/C(=N\NC(=O)c1ccncc1)c1ccc(Br)cc1		HeLa cells	MTT	>4 µg/mL
CCOC(=O)c1cc(C(=O)O)c(=O)n2c1[nH]c1ccccc12	LONG	HEP-2	plaque count	>40 µg/mL
Cc1ccc(S(=O)(=O)N(CCC(N)=O)CCC(N)=O)cc1Nc1nc(Nc2ccc(Nc3ccc(-c4ccc(Nc5ccc(Nc6nc(Nc7cc(S(=O)(=O)N(CCC(N)=O)CCC(N)=O)ccc7C)nc(Nc7cc(S(=O)(=O)N(CCC(N)=O)CCC(N)=O)ccc7C)n6)cc5S(=O)(=O)[O-])cc4S(=O)(=O)O)c(S(=O)(=O)O)c3)c(S(=O)(=O)[O-])c2)nc(Nc2cc(S(=O)(=O)N(CCC(N)=O)CCC(N)=O)ccc2C)n1	A2	HFF	ELISA	>25 µM
O=c1ccn([C@@H]2C[C@H](CO)C[C@H]2CO)c(=O)[nH]1		HeLa		>100 µg/mL
O=C(Nc1ccc(NC(=S)Nc2ccc(F)c(Cl)c2)cc1)c1ccco1		HFF		>10 µg/mL
CCOC(=O)c1cc(NC(=O)c2ccccc2)c(=O)n2c1[nH]c1ccccc12	LONG	HEP-2	plaque count	>40 µg/mL
O=C(NC1CC1)c1cc2c(s1)-c1ccccc1N(C(=O)c1ccc(NC(=O)c3ccccc3-c3ccccc3)cc1)CC2	YM-53403-R01 Y1631H mutation	HeLa	plaque count	>25 µM
COc1cc(OC)c(NC(=S)Nc2ccc(NC(=O)c3ccco3)cc2C)cc1Cl		HFF		>10 µg/mL
COC(=O)[C@]1(C)CCC[C@]2(C)c3ccc4nc5c(nc4c3CCC12)CCCC5		HeLa	plaque count	>4 µg/mL
Cc1cc(C)c2c(c1)nc(NC1CCCCC1)n2Cc1nc(C)ccc1O		HeLa	cytopathic effect	100 µM
COC(=O)[C@]1(C)CCC[C@]2(C)c3cc(Br)c4nc(C)[nH]c4c3CCC12		HeLa	plaque count	>4 µg/mL
Cc1ccc(O)c(Cn2c(NCCc3cc4ccccc4[nH]3)nc3ccccc32)n1		HeLa	cytopathic effect	100 µM
CCOC(=O)/C=C\C=C\[C@H]1O[C@@H](n2ccc(=O)[nH]c2=O)[C@H](O)[C@@H]1O		HeLa		≥200 µM
N#Cc1cc(C#N)c2[nH]c3ccccc3n2c1=O	FM-58-8	HEP-2	plaque count	1.43 µg/mL
COC(=O)Nc1nc2c3c(ccc2[nH]1)[C@@]1(C)CCC[C@@](C)(C(=O)OC)C1CC3		HeLa	plaque count	>4 µg/mL
CC(C)Nc1ncnc2c1ncn2C1C[C@H](CO)[C@@H](CO)C1		HeLa		>100 µg/mL
Cc1cccc(NC(=S)Nc2ccc(NC(=O)c3ccco3)cc2)c1		HFF		>10 µg/mL
COc1ccc(CCNc2nc3ccccc3n2Cc2nc(C)ccc2O)cc1		HeLa	cytopathic effect	2.512 µM
O=c1[nH]c(=O)n(C2C[C@H](CO)[C@@H](CO)C2)cc1I		HeLa		>100 µg/mL

A second listing of 3 rows from above:

smiles	strain	cells	method	result
COc1cc(OC)c(NC(=S)Nc2ccc(NC(=O)c3ccco3)cc2)cc1Cl	A2	HFF		>20 µM
Cc1ccc(S(=O)(=O)N(CCC(N)=O)CCC(N)=O)cc1Nc1nc(Nc2ccc(Nc3ccc(-c4ccc(Nc5ccc(Nc6nc(Nc7cc(S(=O)(=O)N(CCC(N)=O)CCC(N)=O)ccc7C)nc(Nc7cc(S(=O)(=O)N(CCC(N)=O)CCC(N)=O)ccc7C)n6)cc5S(=O)(=O)[O-])cc4S(=O)(=O)O)c(S(=O)(=O)O)c3)c(S(=O)(=O)[O-])c2)nc(Nc2cc(S(=O)(=O)N(CCC(N)=O)CCC(N)=O)ccc2C)n1	A2	HFF	ELISA	>25 µM
CCOC(=O)c1cc(NC(=O)c2ccccc2)c(=O)n2c1[nH]c1ccccc12	LONG	HEP-2	plaque count	>40 µg/mL